In the data set the target is T1, LiMRE11WT (Leishmania infantum) (UniProt A4I2Z5).
T1 sequence (looked up, limits assumed): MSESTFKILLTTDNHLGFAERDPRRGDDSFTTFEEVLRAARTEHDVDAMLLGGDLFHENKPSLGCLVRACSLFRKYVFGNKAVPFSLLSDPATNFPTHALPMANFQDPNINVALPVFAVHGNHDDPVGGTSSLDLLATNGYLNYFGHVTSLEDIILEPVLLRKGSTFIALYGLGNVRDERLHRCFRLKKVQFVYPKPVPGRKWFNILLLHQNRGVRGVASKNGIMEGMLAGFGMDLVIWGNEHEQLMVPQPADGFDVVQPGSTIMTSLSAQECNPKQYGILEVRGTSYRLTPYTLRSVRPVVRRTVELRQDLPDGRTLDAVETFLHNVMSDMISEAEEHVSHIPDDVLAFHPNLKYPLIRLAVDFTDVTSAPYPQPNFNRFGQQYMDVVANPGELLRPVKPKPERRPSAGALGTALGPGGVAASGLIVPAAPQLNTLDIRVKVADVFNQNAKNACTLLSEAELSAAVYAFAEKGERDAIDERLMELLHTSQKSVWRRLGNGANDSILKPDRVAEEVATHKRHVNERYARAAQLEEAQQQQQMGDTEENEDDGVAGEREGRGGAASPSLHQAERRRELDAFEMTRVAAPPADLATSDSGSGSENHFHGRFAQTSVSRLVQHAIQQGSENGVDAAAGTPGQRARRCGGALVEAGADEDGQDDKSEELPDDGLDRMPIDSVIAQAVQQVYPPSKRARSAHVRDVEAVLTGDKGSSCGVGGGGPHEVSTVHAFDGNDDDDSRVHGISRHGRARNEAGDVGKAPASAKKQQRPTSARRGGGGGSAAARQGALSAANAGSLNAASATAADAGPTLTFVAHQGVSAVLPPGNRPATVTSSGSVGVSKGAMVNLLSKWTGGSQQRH
Kind of data set: EMSA. As to conditions: 2 mM Ca2+, competitive assay, 25 mM MOPS pH 7.0, 0.2% Tween-20, 2 mM CaCl2, 2 mM DTT, 25 nM 32P-DNA, 0-15 nM protein, 15 min 37 C, then 0.2% glutaraldehyde 15 min 37 C, 8% TBE gel, recombinant protein.

For at least one entry, the source does not settle the construct or the ends of the probe. Where a protein sequence is shown, tags need not be part of it.

Take “GGGTGAACCTGCAGGTGGGCAAAGATGTCCTAGCAATGTAATCGTCAAGCTTTATGCCGT (double strand) [DS (double-strand)]”: the binding signal (% bound at 15 nM protein) (text also says not shifted, label: 32P on strand 1) amounted to 10. With “GGGTGAACCTGCAGGTGGGCAAAGATGTCCTAGCAATGTAATCGTCAAGCTTTATGCCGT [SS (single-strand)]”, for the setting “glutaraldehyde fixed, label: 32P, single-stranded DNA”, the binding signal (% bound at 15 nM protein) amounted to 65.

Source of the values: PMC4256157.
